{"source": "paper PMC9734383", "about": "(2022)", "binders": {"B1": {"name": "PN-SIA28 Fab (Fab, V domains shown)", "VH": "QVQLVESGGGVVQPGRSLRLSCAASGFPFSSYGMHWVRQAPGKGLEWVAGVSYDGSYKYYADSVKGRFTISRDSSKSTLYLQMNSLRPEDTAVYYCARPSAIFGIYIILNGLDVWGQGTTVTVSS", "VL": "EIVLTQSPSSVSASVGDRVTITCRATQGISSWLAWYQQKPGKPPKLLIFGASSLQSGVPSRFSGSGSGTDFTLTISSLQPEDFATYFCQQAHSFPLTFGGGTKVEIK", "modifications": "biotinylated (in the BLI assay)"}}, "target": "H2 HA (recombinant HA of the panel) (influenza A virus (strain  in …))", "assay": "BLI"}
{"binder": "B1", "values": [{"measurement": "Kd", "value": 51.6, "unit": "nM"}]}
